A mixed list of measured activities; the numbers were collected in NIAID ChemDB.

Shared fields: whole-cell or culture tests; organism: HIV-1; read by: p24 / ELISA; read-out: EC50

Two numbers with a dash give a range or band. ECn: concentration that inhibits the pathogen or its effect by n%. An empty or dashed field is not shown. Rows are shuffled and stem from different studies.

C=C(C)[C@@H]1CC[C@]2(C(=O)O)CC[C@]3(C)[C@H](CC[C@@H]4[C@@]5(C)CC[C@H](OC(=O)CC(C)(C)C(=O)O)C(C)(C)[C@@H]5CC[C@]43C)[C@@H]12 ; strain: IIIB ; cells: H9 ; value: <0.00035 µM
CC1=C(C(=O)OCC2CCCCC2)C(c2ccc[n+]([O-])c2)NC(=O)N1 ; cells: CEM ; value: >5 µM
CC(=O)OC[C@@H]1C=C[C@H](n2cc(C)c(=O)[nH]c2=O)O1 ; strain: LAV ; cells: CEM-F + CEM ; value: 3.2 µg/mL
CCC1=C(C(=O)OCC2CCCCC2)C(c2cc(F)c(O)c(OC)c2)NC(=O)N1 ; cells: CEM ; value: ≤1 µM
Cn1c2ccccc2c(=O)c2c(O)cccc21 ; strain: IIIB ; cells: U-937 ; value: 7 µg/mL
CN[C@@H]1[C@H](O[C@@H]2OC[C@@H](O)[C@H](O)[C@H]2O)[C@@H](O)[C@H](O[C@H]2c3cc(C)c(C(=O)N[C@H](C)C(=O)O)c(O)c3-c3c(cc4c(c3O)C(=O)c3cc(OC)cc(O)c3C4=O)[C@@H]2O)O[C@@H]1C ; strain: IIIB ; cells: MT-4 ; value: 3.1 µM
CC1(C)CC[C@]2(C(=O)O)CC[C@]3(C)C(=CC[C@@H]4[C@@]5(C)CC[C@H](OC(=O)CC(C)(C)C(=O)O)C(C)(C)[C@@H]5CC[C@]43C)[C@@H]2C1 ; strain: IIIB ; cells: H9 ; value: 0.00086 µM
C=C(C)[C@@H]1C[C@@H](COC(=O)c2ccccc2)[C@@]23OC45OC1(O4)[C@@H]2[C@@H]1O[C@]1(CO)[C@@H](O)[C@@]1(O)[C@H]3[C@H]([C@H](C)[C@@H]1OC(=O)c1ccccc1)[C@H](C)CCCCCC[C@H]5O ; strain: NL4-3 ; cells: MT-4 ; value: 0.00006 µM
NCC(NC(=O)c1ccc(-c2cc(F)c(Cl)c(F)c2)[nH]1)c1nc(CO)cs1 ; strain: NL4-3 ; cells: PBMC ; value: 1.2 µM
C[C@@H]1CC[C@]2(C(=O)O)CC[C@]3(C)C(=CC[C@@H]4[C@@]5(C)CC[C@H](O)C(C)(C)[C@@H]5CC[C@]43C)[C@@H]2[C@]1(C)O ; strain: IIIB ; cells: H9 ; value: 3 µM
CCN1C(=O)NC(=O)C(C(C)C)C1CC1CC(C)CC(C#N)C1=O ; strain: KM018 ; cells: C8166 ; value: 0.00667 µM
CC1=C(C(=O)OCC2CCCCC2)C(c2cccc(OC(=O)c3ccccc3)c2)NC(=O)N1 ; cells: CEM ; value: ≤1 µM
Cc1ccc(CSc2nnc(-c3c[nH]c4c(-c5ccccc5)cccc4c3=O)o2)cc1 ; strain: NL4-3 ; cells: HeLa ; value: >100 µM
CC(C)C1=C2[C@H]3CC[C@@H]4[C@@]5(C)CC[C@H](OC(=O)[C@H]6C[C@@H](C(=O)O)C6(C)C)C(C)(C)[C@@H]5CC[C@@]4(C)[C@]3(C)CC[C@@]2(NC(=O)C(C)(C)NC(=O)c2ccc(N3CCOCC3)nc2)CC1=O ; strain: 92HT599 ; cells: MT-2 ; value: <0.003 µM
CC(C)(C)NC(=O)[C@@H]1CN(Cc2cccnc2)CCN1C[C@@H](O)C[C@@H](Cc1ccccc1)C(=O)N[C@H]1c2ccccc2C[C@H]1O ; strain: IIIB ; cells: H9(HIV-1(IIIB)) ; value: 0.76 µM
C[C@H]1[C@H](C)CC[C@]2(C(=O)O)CC[C@]3(C)C(=CC[C@@H]4[C@@]5(C)CC[C@H](OC(=O)CC(C)(C)CC(=O)O)C(C)(C)[C@@H]5CC[C@]43C)[C@H]12 ; strain: IIIB ; cells: H9 ; value: >7 µM
CCC1=C(C(=O)OCC2CCCCC2)C(c2cc(O)c(O)c(O)c2)NC(=O)N1 ; cells: CEM ; value: >5 µM
CC(CCC(=O)N[C@@H](Cc1ccc(O)cc1)C(=O)O)C1CCC2C3CCC4C[C@H](O)CCC4(C)C3C[C@H](O)C12C ; value: 21.5 µg/mL
COc1ccc2c(c1OC)c(=O)c1ccccc1n2C ; strain: IIIB ; cells: OM-10.1 ; value: >28 µg/mL
Cc1cn([C@H]2C=C[C@@H](COC(=O)c3ccccc3)O2)c(=O)[nH]c1=S ; strain: LAV ; cells: CEM-F + CEM ; value: 0.5 µg/mL
COc1cc2c(OC3OC(C)C(OC4OC(CO)C(O)C(O)C4O)C(O)C3OC(C)=O)c3c(c(-c4ccc5c(c4)OCO5)c2cc1OC)C(=O)OC3 ; strain: LAV ; cells: PBMC ; value: 0.641 µM
CC1=CC(=O)O[C@@H]1[C@@]1(C)C[C@H]2OC(=O)CC3C(C)C(=O)C(O)=C1[C@]32CO ; strain: IIIB ; cells: H9 ; value: 28 µM
CC(C)(C)C1=NC(c2ccccc2)(C(F)(F)F)NC(=O)N1 ; strain: HXB2 ; cells: MT-2 ; value: 0.0519 µM
C=C(C)[C@@H]1CC[C@]2(C(=O)O)CC[C@]3(C)[C@H](CC[C@@H]4[C@@]5(C)CC[C@H](OC(=O)COCC(=O)O)C(C)(C)[C@@H]5CC[C@]43C)[C@@H]12 ; strain: IIIB ; cells: H9 ; value: 0.01 µM
C[C@H](Cn1cnc2c(N)ncnc21)OCP(=O)(O)O ; strain: 92US660 ; cells: PBMC ; value: 4.35 µM
Cc1cn([C@H]2C=C[C@@H](COC(=O)C3=CN(C)C=CC3)O2)c(=O)[nH]c1=O ; strain: LAV ; cells: CEM-F + CEM ; value: <1 µg/mL
OC1COC(O)C(O)C1O.OCC1OC(O)C(O)C(O)C1O.OCC1OC(O)C(O)C(O)C1O.OCC1OC(O)C(O)C(O)C1O ; strain: N1T ; cells: CEM ; value: <30 µg/mL
C=C(C)[C@@H]1CC[C@]2(C(=O)O)CC[C@]3(C)[C@H](CC[C@@H]4[C@@]5(C)CC[C@H](OC(=O)CC(C)(C)CC(=O)O)C(C)(C)[C@@H]5CC[C@]43C)[C@@H]12 ; strain: IIIB ; cells: H9 ; value: 0.0023 µM
CC(C)C1=C2[C@H]3CC[C@@H]4[C@@]5(C)CC[C@H](OC(=O)[C@H]6C[C@@H](C(=O)O)C6(C)C)C(C)(C)[C@@H]5CC[C@@]4(C)[C@]3(C)CC[C@@]2(CCNC(=O)c2ccc(N3CCS(=O)(=O)CC3)nc2)CC1=O ; strain: 92HT599 ; cells: MT-2 ; value: <1 µM
COc1ccc(C(=O)NC(C)(C)C(=O)N[C@@]23CC[C@]4(C)[C@H](CC[C@@H]5[C@@]6(C)CC[C@H](OC(=O)[C@H]7C[C@@H](C(=O)O)C7(C)C)C(C)(C)[C@@H]6CC[C@]54C)C2=C(C(C)C)C(=O)C3)cc1 ; strain: 92HT599 ; cells: MT-2 ; value: <0.003 µM
CCC1=C(C(=O)OCC2CCCCC2)[C@H](c2ccc(OC(=O)OC(C)(C)C)cc2)NC(=O)N1 ; cells: CEM ; value: ≤1 µM
C[C@H]1[C@H](C)CC[C@]2(C(=O)O)CC[C@]3(C)C(=CC[C@@H]4[C@@]5(C)CC[C@H](OC(=O)C(C)(C)CC(=O)O)C(C)(C)[C@@H]5CC[C@]43C)[C@H]12 ; strain: IIIB ; cells: H9 ; value: >30.7 µM
CCC1=C(C(=O)OCC2CCCCC2)C(c2ccc(NCc3ccccc3)cc2)NC(=O)N1 ; cells: CEM ; value: ≤1 µM
Cc1cn([C@H]2C[C@H](N=[N+]=[N-])[C@@H](CO)O2)c(=O)[nH]c1=O ; strain: KM018 ; cells: PBMC ; value: 0.0377 µg/mL
C=C(C)[C@@H]1CC[C@]2(C(=O)OC)CC[C@]3(C)[C@H](CC[C@@H]4[C@@]5(C)CC[C@H](NC(=O)CC(C)(C)CC(=O)O)C(C)(C)[C@@H]5CC[C@]43C)[C@@H]12 ; strain: IIIB ; cells: H9 ; value: 1.16 µM
C[C@H]1[C@H](C)CC[C@]2(C(=O)O)CC[C@]3(C)C(=CC[C@@H]4[C@@]5(C)CC[C@H](OC(=O)COCC(=O)O)C(C)(C)[C@@H]5CC[C@]43C)[C@H]12 ; strain: IIIB ; cells: H9 ; value: 0.31 µM
O=c1c(-c2nnc(SCc3ccccc3F)o2)c[nH]c2c(-c3ccccc3)cccc12 ; strain: NL4-3 ; cells: HeLa ; value: 50 µM
Cc1nc(C(CN)NC(=O)c2ccc(-c3ccc4c(c3)OCO4)[nH]2)sc1CO ; strain: BaL ; cells: PBMC ; value: 2.8 µM
CC(C)C1=C2[C@H]3CC[C@@H]4[C@@]5(C)CC[C@H](OC(=O)[C@H]6C[C@@H](C(=O)O)C6(C)C)C(C)(C)[C@@H]5CC[C@@]4(C)[C@]3(C)CC[C@@]2(NC(=O)C(C)(C)NC(=O)c2ccc(OCCN3CCOCC3)cc2)CC1=O ; strain: 92HT599 ; cells: MT-2 ; value: <0.003 µM
CC(C)CN(C[C@@H](O)[C@H](Cc1ccccc1)NC(=O)O[C@H]1CO[C@H]2OCC[C@H]21)S(=O)(=O)c1ccc2nc(NC3CCN(C4CCCC4)CC3)sc2c1 ; strain: LAI ; cells: PBMC ; value: 0.0022 µM
C=C(C)[C@@H]1CC[C@]2(C(=O)O)CC[C@]3(C)[C@H](CC[C@@H]4[C@@]5(C)CC[C@@H](NC(=O)COCC(=O)O)C(C)(C)[C@@H]5CC[C@]43C)[C@@H]12 ; strain: IIIB ; cells: H9 ; value: 0.24 µM
CC1=C(C(=O)OCC2CCCCC2)C(c2cccc(OC(=O)C(C)(C)C)c2)NC(=O)N1 ; cells: CEM ; value: ≤1 µM
CC(C)(C)NC(=O)[C@@H]1CN(Cc2cccnc2)CCN1C[C@@H](O)C[C@@H](Cc1ccccc1)C(=O)N[C@H]1c2ccccc2C[C@H]1O ; strain: LAI ; cells: HEK293T ; value: 0.0013–0.0032 µM
CCC1=C(C(=O)c2ccc(F)cc2)C(c2cccc(O)c2)NC(=O)N1 ; cells: CEM ; value: >5 µM
Cc1cn([C@H]2C=C[C@@H](CO)O2)c(=O)nc1N ; strain: LAV ; cells: CEM-F + CEM ; value: 1.8 µg/mL

For reference, 5 entries again:

SMILES,strain,cells,value
Cc1cn([C@H]2C=C[C@@H](CO)O2)c(=O)nc1N,LAV,CEM-F + CEM,1.8 µg/mL
C=C(C)[C@@H]1CC[C@]2(C(=O)O)CC[C@]3(C)[C@H](CC[C@@H]4[C@@]5(C)CC[C@H](OC(=O)COCC(=O)O)C(C)(C)[C@@H]5CC[C@]43C)[C@@H]12,IIIB,H9,0.01 µM
Cn1c2ccccc2c(=O)c2c(O)cccc21,IIIB,U-937,7 µg/mL
CCC1=C(C(=O)OCC2CCCCC2)C(c2cc(O)c(O)c(O)c2)NC(=O)N1,,CEM,>5 µM
C[C@H]1[C@H](C)CC[C@]2(C(=O)O)CC[C@]3(C)C(=CC[C@@H]4[C@@]5(C)CC[C@H](OC(=O)COCC(=O)O)C(C)(C)[C@@H]5CC[C@]43C)[C@H]12,IIIB,H9,0.31 µM